Data taken from PMC3131257, “Hypericum lanceolatum (Hypericaceae) as a potential source of new anti-malarial agents: a bioassay-guided fractionation of the stem bark” (Malaria Journal, 2011).

System: LLC-MK2 monkey kidney epithelial cells
Assay: cytotoxicity on LLC-MK2 monkey kidney epithelial cells
Settings: SI = CC50/IC50
Protocol: The cytotoxicity profiles of the extracts and pure compounds were estimated against LLC-MK2 monkey kidney epithelial cells according to the procedure previously described with some modifications. Cells were cultured under the same conditions as P. falciparum. Cells were distributed in 96-well plates at 20,000 cells per well in 100 μL culture medium, and allowed to attach and become confluent, for 24h. The medium was then removed completely the next day and 100 μL of fresh medium was added to all the wells, followed by 100 μL of crude extract (1000 μg/mL) or pure compounds (200 μg/mL) added in triplicate in row H. A two folds serial dilution was made upward to obtain concentration range of 250 - 3.90 μg/ml (crude extract) or 50 - 0.78 μg/ml (pure compounds), cells at row A serving as control without drug. The plates were incubated for five days at 37°C in 5% CO2 in air. Cells concentration and viability in the presence of extracts or pure compounds were compared with that of control cultures without extracts.

COc1cccc2c(=O)c3ccc(O)cc3oc12 [HLT4, 3-hydroxy-5-methoxyxanthone]
Mean SI for W2mef (first SI column of Table 3): 0.36 ± 0.00
Mean SI for W2mef (second SI column of Table 3 (same head printed)): 0.36
